# Experimental data published in PubChem BioAssay AID485367 (National Center for Advancing Translational Sciences (NCATS), 2010).
# Chains of the proteins cited; added tags and fusions are not shown.
# UniProt O15648, whole entry: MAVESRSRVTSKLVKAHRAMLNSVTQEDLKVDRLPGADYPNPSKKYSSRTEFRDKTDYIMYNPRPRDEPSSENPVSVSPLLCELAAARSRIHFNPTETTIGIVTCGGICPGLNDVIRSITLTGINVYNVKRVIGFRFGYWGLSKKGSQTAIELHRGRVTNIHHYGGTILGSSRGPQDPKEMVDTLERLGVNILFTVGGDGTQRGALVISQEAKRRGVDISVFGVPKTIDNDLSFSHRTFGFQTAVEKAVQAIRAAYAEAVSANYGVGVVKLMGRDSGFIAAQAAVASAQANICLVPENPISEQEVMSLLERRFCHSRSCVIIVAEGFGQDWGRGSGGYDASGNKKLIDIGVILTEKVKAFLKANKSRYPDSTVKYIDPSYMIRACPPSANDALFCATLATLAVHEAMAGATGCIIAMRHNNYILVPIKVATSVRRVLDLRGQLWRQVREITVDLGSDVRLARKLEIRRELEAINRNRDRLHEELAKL
# The list shows a part of the results, in another mix than the full data. Calls of active or inactive are those of the source. Calls follow the shape of the dose curve; as a rule, active = well fitted inhibition curve with a large enough effect; inconclusive = small, poorly fitted or top-dose-only effect, or effect the other way; inactive = flat fitted curve, though single readings scatter.
# Target: ATP-dependent 6-phosphofructokinase (Trypanosoma brucei brucei) (UniProt O15648)
# Test: qHTS Assay to Find Inhibitors of T. brucei phosphofructokinase; also: nearly all actives have a fitted effect of over 60% in size
# Settings: T. brucei PFK, ADP-Glo luminescence; at 57.5 µM (top of the series)
# Text: NIH Molecular Libraries Probe Production Network [MLPCN] NIH Chemical Genomics Center [NCGC] Grant: 1 R03 MH092153-01 PI Name: Malcolm Walkinshaw, University of Edinburgh NCGC Assay Overview: Various species of the protozoan family Trypanosomatidae are responsible for a range of serious human diseases in tropical and subtropical areas of the world. […] Many of the disorders caused by trypanosomatids are fatal if left untreated, but most currently used drugs are inefficient and toxic. […] Oxidative metabolism involving the mitochondrial tricarboxylic acid cycle and oxidative phosphorylation are repressed in these parasites, and recent RNA interference (RNAi) experiments have shown that even partial depletion of certain individual glycolytic enzymes can lead to the death of cultured parasites. One such glycolytic enzyme, phosphofructokinase (PFK), catalyzes the formation of fructose-1,6-bisphosphate (F1,6BP) and ADP from fructose-6-phosphate (F6P) and ATP, and in many metabolic circumstances makes an important contribution to the control of flux through the glycolytic pathway. As a specific glycolytic target, PFK is particularly attractive as it catalyzes the first irreversible step in glycolysis, and structural and kinetic studies have shown very substantial and essential differences from corresponding host enzymes, allowing for the discovery of parasite-selective inhibitors. The goal of this screen is to find small-molecule inhibitors of T. brucei PFK using a biochemical assay that measures PFK activity as a function of ADP production. A luminescence-based assay for T. brucei PFK activity has been developed which uses luciferase to detect production of ADP. Traditional luciferase-based nucleotide detection reagents rely on ATP production as a direct substrate for the luciferase reaction; however, PFK catalyzes the transfer of a phosphate from ATP to F6P, resulting in the net depletion of ATP. To directly measure the ADP product of the PFK reaction, we used the ADP-Glo detection kit (Promega), which utilizes two separate reactions to 1) deplete all remaining uncatalyzed ATP and 2) convert all remaining ADP to ATP, which is then detected through a traditional luciferase-coupled reaction. Compounds were screened as a concentration-titration series that ranged from 57 uM to 0.7 nM.
# NCGC Assay Protocol Summary: NCGC Assay Protocol Summary: Substrate buffer was dispensed into white, solid 1536-well plates at 3uL/well in 0.1M triethanolamine (TEA) buffer, pH 8.0, containing final concentrations of 5 mM MgCl2, 0.01% Tween20, 0.5 mM fructose-6-phosphate (F6P) and 0.1mM ATP. Then, 23 nL of compounds or DMSO were delivered to each well using a pin tool. One uL T. brucei PFK (0.1M TEA, 0.01% Tween20, 0.1% bovine serum albumin (BSA) and 1.25nM PFK, final concentrations) was then dispensed, and plates were incubated at room temperature for 45 min. The luminescent detection reagent, ADP-Glo (Promega), was then added in two steps: the first reagent, ADP-Glo (which converts remaining uncatalyzed ATP), was added at 2.5uL/well and incubated for ten minutes at room temperature, and the second component, Kinase Detection reagent (which converts ADP to ATP as a substrate for luciferase-based luminescence), was added immediately after at 5uL/well, followed by one final ten minute room temperature incubation. The plates were measured on a ViewLux plate reader for luminescent signal using a clear filter with a one second exposure. The %Activity was determined from the corrected luminescence values. As no specific T. brucei PFK inhibitors have been identified in the literature, 1x (1.25nM) and 0x PFK enzyme controls (untreated) were included to normalize %Activity of identified inhibitors; 0x enzyme values corresponded to 100%Activity (full inhibition), while 1x PFK enzyme values were used to normalize 0%Activity (no inhibition). Concentration-response curves were fitted to the signals arising from the resulting luminescence. […]
row,Structure (SMILES),"activity, negative = inhibition"
1,CC1=NCCc2c1[nH]c1ccccc21.O=[N+]([O-])c1cc([N+](=O)[O-])c(O)c([N+](=O)[O-])c1,inactive: 3.22%
2,Cc1ccc(C)c(NP(C)(=O)Oc2ccccc2)c1 (centres undefined),inactive: -7.64%
3,CP(=O)(Nc1cccc(Br)c1)Oc1ccccc1 (centres undefined),inactive: -2.5%
4,Cc1cc(C)cc(OP(C)(=O)Nc2ccccn2)c1 (centres undefined),inactive: 1.84%
5,CCOC(=O)c1ccc(NP(C)(=O)Oc2cc(C)cc(C)c2)cc1 (centres undefined),inactive: -7.25%
6,Cc1cc(C)cc(OP(C)(=O)Nc2ccc(C)cc2C)c1 (centres undefined),inactive: -0.571%
7,COc1ccccc1OP(C)(=O)Nc1cccc(Br)c1 (centres undefined),inactive: 0.771%
8,Cc1nc2ccc3ccccc3c2s1.O=[N+]([O-])c1cc([N+](=O)[O-])c(O)c([N+](=O)[O-])c1,inactive: -7.51%
9,O=[N+]([O-])c1cc([N+](=O)[O-])c(-n2nnc3ccccc32)c([N+](=O)[O-])c1,inactive: 3.61%
10,CP(=O)(Nc1ccc(SC(F)(F)F)cc1)Oc1ccccc1 (centres undefined),inactive: 4.86%
11,CCCOc1ccc(NP(C)(=O)Oc2ccc(Cl)cc2)cc1 (centres undefined),inactive: 1.8%
12,CN1CCCCC1COC(=O)C1(O)c2ccccc2CCc2ccccc21 (centres undefined),inactive: -2.87%
13,COc1ccccc1OP(C)(=O)Nc1c(C)cccc1C (centres undefined),inactive: 3.25%
14,O=[N+]([O-])c1cc([N+](=O)[O-])c(Nc2nnnn2CCO)c([N+](=O)[O-])c1,inactive: 0.714%
15,CC1=C2N=C(C=C3N=C(C(C)=C4[N-][C@@](C)([C@@H]5N=C1[C@](C)(CCC(=O)NC[C@@H](C)OP(=O)([O-])O[C@H]1[C@@H](O)[C@@H](n6cnc7cc(C)c(C)cc76)O[C@@H]1CO)[C@H]5CC(N)=O)[C@@](C)(CC(N)=O)[C@@H]4CCC(N)=O)[C@@](C)(CC(N)=O)[C@@H]3CCC(N)=O)C(C)(C)[C@@H]2CCC(N)=O.[C-]#N.[Co+3],inactive: -13.8%
16,CP(=O)(Nc1ccccc1Br)Oc1ccccc1 (centres undefined),inactive: -1.93%
17,COc1ccccc1OP(C)(=O)Nc1ccccc1 (centres undefined),inactive: -6.39%
18,CP(=S)(Nn1cnnc1)Oc1ccccc1 (centres undefined),inactive: 0.932%
19,CCOC(=O)c1ccc(NP(C)(=O)Oc2ccc(OC)cc2)cc1 (centres undefined),inactive: -5.02%
20,CCOP(C)(=S)SCC(=O)NC(C)C(=O)O (centres undefined),inactive: 7.07%
21,CCc1ccc(OP(C)(=O)N2CCN(c3ccc([N+](=O)[O-])cc3)CC2)cc1 (centres undefined),inactive: -2.44%
22,CP(=O)(NC(=O)Nc1ccccc1)Oc1ccccc1 (centres undefined),inactive: -3.6%
23,Cc1cc(C)cc(OP(C)(=O)Nc2ccc(SC(F)(F)F)cc2)c1 (centres undefined),inactive: 0.0676%
24,CP(=O)(Nc1ccc(SC(F)(F)F)cc1)Oc1ccc(Cl)cc1 (centres undefined),inactive: 1.02%
25,Cc1cccc(C)c1OP(C)(=O)Nc1ccc(SC(F)(F)F)cc1 (centres undefined),inactive: -3.52%
26,CP(=O)(Oc1ccccc1)OC(c1ccccc1)C(F)(F)F (centres undefined),inactive: -0.704%
27,CCN(CC)CCCOC(=O)C(O)(c1ccccc1)c1ccccc1,inactive: 3.07%

row,Structure (SMILES),"activity, negative = inhibition"
1,Cc1cc(C)cc(OP(C)(N)=O)c1 (centres undefined),inactive: 3.37%
2,COc1ccccc1OP(C)(=O)Nc1cc(Cl)ccc1C (centres undefined),inactive: 0.582%
3,COc1ccc(OP(C)(=O)Nc2cccc(F)c2)cc1 (centres undefined),inactive: 1.31%
4,COc1ccccc1OP(C)(=O)Nc1ccc(C)cc1 (centres undefined),inactive: -0.691%
5,Cc1ccc(NP(C)(=O)Oc2ccccc2)c(C)c1 (centres undefined),inactive: -14.6%
6,CCOC(=O)c1ccc(NP(C)(=O)Oc2ccccc2)cc1 (centres undefined),inactive: 2.01%
7,O=[N+]([O-])c1ccc2c(c1)C=Nc1ccccc1O2,inactive: -1.31%
8,CC(C)(C)c1ccc(OP(C)(=O)Nc2ccc(SC(F)(F)F)cc2)cc1 (centres undefined),inactive: 1.34%
9,Cc1cccc(C)c1OP(C)(N)=O (centres undefined),inactive: 8.09%
10,O=[N+]([O-])c1cc([N+](=O)[O-])c(Nc2cccnc2)c([N+](=O)[O-])c1,inactive: -0.466%
11,CP(=O)(OCCOc1ccccc1)OCCOc1ccccc1,inactive: -6.07%
12,CP(=O)(Nc1ccc(Cl)cc1Cl)Oc1ccccc1 (centres undefined),inactive: 0.814%
13,Cc1nc2ccc3ccccc3c2o1.O=[N+]([O-])c1cc([N+](=O)[O-])c(O)c([N+](=O)[O-])c1,inactive: -0.576%
14,COc1ccccc1OP(C)(=O)Nc1ccc(C)c(C)c1 (centres undefined),inactive: -0.218%
15,COc1ccc(OP(C)(=O)Nc2ccccc2Br)cc1 (centres undefined),inactive: -10.9%
16,Cc1cc(C)cc(OP(C)(=O)Nc2cccc(C(F)(F)F)c2)c1 (centres undefined),inactive: 0.119%
17,CP(=O)(Nc1ccccn1)Oc1ccccc1 (centres undefined),inactive: -14.1%
18,COc1ccccc1OP(C)(=O)Nc1ccc(C)cc1C (centres undefined),inactive: 1.02%
19,CCc1ccc(OP(C)(=O)O)cc1,inactive: 0.297%
20,O=[N+]([O-])c1cc([N+](=O)[O-])c(Nc2ccccn2)c([N+](=O)[O-])c1,inactive: -5.99%
21,Cc1c(NP(C)(=O)Oc2ccc(C(C)C)cc2)c(=O)n(-c2ccccc2)n1C (centres undefined),inactive: -10.5%
22,COc1ccc(OP(C)(=O)Nc2ccccn2)cc1 (centres undefined),inactive: 0.17%
23,CN(C)CCOC(=O)C(O)(c1ccccc1)C1CCCC1 (centres undefined),inactive: -0.667%
24,COc1ccccc1OP(C)(=O)Nc1ccc(Br)cc1 (centres undefined),inactive: -2.6%
25,CN(C)C(=O)c1c([N+](=O)[O-])cc([N+](=O)[O-])cc1[N+](=O)[O-],inactive: -6.34%
26,CC(C)(C)c1ccc(OP(C)(=O)O)cc1,inactive: 0.446%
27,COc1ccccc1OP(C)(=O)Nc1ccccc1Br (centres undefined),inactive: 0.457%

row,Structure (SMILES),"activity, negative = inhibition"
1,CP(=O)(Nc1ccc(Cl)cc1)Oc1ccc(F)cc1 (centres undefined),inactive: -5.23%
2,COc1ccccc1OP(C)(=O)Nc1c(C)n(C)n(-c2ccccc2)c1=O (centres undefined),inactive: -3.17%
3,O=C(OCCCN1CCCC1)C(O)(c1ccccc1)C1CCCCC1 (centres undefined),inactive: 0%
4,CP(=O)(Oc1ccccc1)N1CCOC1=O (centres undefined),inactive: 2.17%
5,CCc1ccc(OP(C)(=O)Nc2cccnc2)cc1 (centres undefined),inactive: 0.357%
6,CCN(CC)CC(O)COC(=O)C(O)(c1ccccc1)C1CCCCC1 (centres undefined),inactive: 0.132%
7,COc1ccc(OP(C)(=O)Nc2ccc(Br)cc2)cc1 (centres undefined),inactive: -0.239%
8,CCOC(=O)c1ccc(NP(C)(=O)Oc2ccc(Cl)cc2)cc1 (centres undefined),inactive: -0.963%
9,CP(=O)(OC12CC3CC(CC(C3)C1)C2)OC12CC3CC(CC(C3)C1)C2,inactive: 0.753%
10,O=[N+]([O-])c1ccc(OP2(=O)COCCO2)cc1 (centres undefined),inactive: -3.61%
11,Cc1cc(-c2cccc3ccccc23)c(C)cn1.O=[N+]([O-])c1cc([N+](=O)[O-])c(O)c([N+](=O)[O-])c1,inactive: -2.44%
12,CN(C)CCOC(=O)C(O)(c1ccccc1)C1CCCCC1 (centres undefined),inactive: -0.886%
13,COc1ccc(NP(C)(=O)Oc2ccccc2OC)cc1 (centres undefined),inactive: -0.329%
14,COc1ccc(OP(C)(=O)Nc2cccc(Br)c2)cc1 (centres undefined),inactive: -2.65%
15,CP(=O)(Nc1ccc2c(c1)OCCO2)Oc1ccccc1 (centres undefined),inactive: 5.14%
16,CCOP(C)(=S)SCC(=O)NC(C)(CC)C(=O)O (centres undefined),inactive: 0.925%
17,CP(=O)(Nc1ccc(SC(F)(F)F)cc1)Oc1ccc(F)cc1 (centres undefined),inactive: -6.23%
18,O=C(OCCN1CCN(CCOCc2ccccc2)CC1)C(O)(c1ccccc1)c1ccccc1,inactive: 5.94%
19,CP(=O)(Nc1ccccc1F)Oc1ccccc1 (centres undefined),inactive: -0.579%
20,CC(C)c1ccc(OP(C)(=O)Nc2ccc(SC(F)(F)F)cc2)cc1 (centres undefined),inactive: -0.0522%
21,CP(=O)(Nc1ccccc1)Oc1ccc(F)cc1 (centres undefined),inactive: -1.92%
22,CCCCCOc1ccc(NP(C)(=O)Oc2ccc(Cl)cc2Cl)cc1 (centres undefined),inactive: -4.01%
23,CCN(CC)CCCOC(=O)C(O)(c1ccccc1)C1CCCCC1 (centres undefined),inactive: 2.63%
24,CCOC(=O)c1ccc(NP(C)(=O)Oc2ccc(F)cc2)cc1 (centres undefined),inactive: -0.144%
25,COc1ccc(OP(C)(=O)Nc2ccc(SC(F)(F)F)cc2)cc1 (centres undefined),inactive: -6.79%
